Pooled drug test results. Numbers come from NIAID ChemDB, via PubChem.

All rows: growth or infection tests; organism: HIV-1; cell line: MT-4; read-out: EC50

Two numbers with a dash give a range or band. Neighbouring rows are from separate reports. An empty or dashed field is not shown. ECn is the concentration giving n% inhibition of infection, replication or growth.

structure	strain	mutations	read by	value
COc1cccc2c1nc(-c1ccccc1F)n2CCC#N	IIIB			>66 µg/mL
CCc1c(Cc2ccccc2)n(COCC2CC2)c(=O)[nH]c1=O	IIIB		MTT	1.1 µM
Cc1ccc2sn(/N=C/c3ccccc3)c(=O)c2c1		Y181C	MTT	>33 µM
Cc1nc(C)c(C(=O)NC(C)(C)C(=O)N[C@@]23CC[C@]4(C)[C@H](CC[C@@H]5[C@@]6(C)CC[C@H](OC(=O)C7C[C@@H](C(=O)O)C7(C)C)C(C)(C)[C@@H]6CC[C@]54C)C2=C(C(C)C)C(=O)C3)s1	NL4-3	V7A	p24	0.01001–0.05 µM
COc1c(-c2cc(C)n(-c3ccccc3)n2)c(O)c(S(=O)(=O)Oc2ccc([N+](=O)[O-])cc2)c2occc12	IIIB		MTT	0.000014 µM
NS(=O)(=O)c1ccc(NC(=O)COc2cc(Cl)cc(Oc3cncc(Br)c3)c2)c(Cl)c1			p24	<20 µM
CC(C)C1=C2[C@H]3CC[C@@H]4[C@@]5(C)CC[C@H](OC(=O)C6C[C@@H](C(=O)O)C6(C)C)C(C)(C)[C@@H]5CC[C@@]4(C)[C@]3(C)CC[C@@]2(NC(=O)C(C)(C)NC(=O)c2cnn3cccnc23)CC1=O	NL4-3		p24	<0.005 µM
O=c1c2ccccc2sn1/N=C/c1ccc(O)c(O)c1		K103N + Y181C	MTT	>44 µM
COc1c(-c2cc(C)[nH]n2)c(O)c(S(=O)(=O)Oc2ccc(F)cc2)c2occc12	IIIB		MTT	0.000017 µM
Cc1nc2c(c(C)c(C)n2CC(=O)N(C)C)c(-c2ccc(Cl)cc2)c1[C@H](OC(C)(C)C)C(=O)O	IIIB		MTT	0.0391 µM
CCCOC(=O)c1cc(O)c(O)c(O)c1	IIIB		cytopathic effect / MTT	>12.5 µg/mL
COP(=O)(c1cc(C)cc(CCC#N)c1)c1c(C(N)=O)[nH]c2ccc(Cl)c(F)c12	BH10	K103/Y181C	cytopathic effect	0.0035 µM
N#Cc1cc(Cl)cc(Oc2cc(OCc3[nH]nc4nc(N5CCNCC5)ccc34)ccc2Cl)c1			p24	<20 µM
O=CC1OC(=O)c2cc(O)c(O)c(O)c2Oc2cc3c(c(O)c2O)-c2c(cc(O)c(O)c2O)C(=O)OCC2OC(OC(=O)c4cc(O)c(O)c(O)c4Oc4cc5c(c(O)c4O)-c4c(cc(O)c(O)c4O)C(=O)OC(C(O)COC5=O)C1OC(=O)c1cc(O)c(O)c(O)c1)C(OC(=O)c1cc(O)c(O)c(O)c1)C(OC(=O)c1cc(O)c(O)c(O)c1)C2OC3=O	IIIB		cytopathic effect / MTT	>4.8 µg/mL
COc1c(-c2cc(C)[nH]n2)c(O)c(S(=O)(=O)Oc2ccc([N+](=O)[O-])cc2)c2occc12	IIIB		MTT	0.000023 µM
CC1(C)NC(=O)n2c1nc(C(=O)NCc1ccc(F)cc1)c(O)c2=O			p24	<50 µM
O=C(OC1OC2COC(=O)c3cc(O)c(O)c(O)c3-c3c(cc(O)c(O)c3O)C(=O)OC2C(OC(=O)c2cc(O)c(O)c(O)c2)C1OC(=O)c1cc(O)c(O)c(O)c1)c1cc(O)c(O)c(O)c1	IIIB		cytopathic effect / MTT	>50 µg/mL
O=c1c2ccccc2sn1/N=C/c1ccc(F)cc1			MTT	4.4 µM
COc1cccc2c1nc(-c1ccccc1F)n2Cc1ccccc1C(F)(F)F	IIIB			0.48 µg/mL
CCc1c(Cc2ccc(OC)c(OC)c2)n(COCC2CC2)c(=O)[nH]c1=O	EFVR	K103R/V179D/P225H	MTT	>100 µM
O=CC1OC(=O)c2cc(O)c(O)c(O)c2Oc2cc3c(c(O)c2O)-c2c(cc(Oc4c(C(=O)O)cc(O)c(O)c4O)c(O)c2O)C(=O)OCC(O)C(OC3=O)C(OC(=O)c2cc(O)c(O)c(O)c2)C(C=O)OC(=O)c2cc(O)c(O)c(O)c2Oc2cc3c(c(O)c2O)-c2c(cc(O)c(O)c2O)C(=O)OC(C(O)COC3=O)C1OC(=O)c1cc(O)c(O)c(O)c1	IIIB		cytopathic effect / MTT	>100 µg/mL
CCc1c(Cc2ccccc2)n(COCCc2ccccc2)c(=O)[nH]c1=O	N119	Y181C	MTT	>43 µM
O=C1OCC(O)C(C2OC(=O)c3cc(O)c(O)c(O)c3-c3c(O)c(O)c(O)c4c3C(=O)OC2C4c2c(O)cc(O)c3c2OC(c2ccc(O)c(O)c2)C(O)C3)OC(=O)c2cc(O)c(O)c(O)c2-c2c1cc(O)c(O)c2O	IIIB		cytopathic effect / MTT	7.9 µg/mL
CCn1c(-c2ccccc2F)nc2c(OC)cccc21	IIIB			2.55 µg/mL
CCOC(=O)NC(C)(C)C(=O)N[C@@]12CC[C@]3(C)[C@H](CC[C@@H]4[C@@]5(C)CC[C@H](OC(=O)C6C[C@@H](C(=O)O)C6(C)C)C(C)(C)[C@@H]5CC[C@]43C)C1=C(C(C)C)C(=O)C2	NL4-3	V7A	p24	>0.05 µM
CN(C)CC1c2nc(C(=O)NCc3ccc(F)cc3)c(O)c(=O)n2CCN1C(=O)C(=O)N(C)C			p24	<50 µM
Cc1ccc2sn(/N=C/c3cccc([N+](=O)[O-])c3)c(=O)c2c1			MTT	48 µM
COc1cccc2c1nc(-c1ccccc1F)n2Cc1c(F)cccc1Cl	IIIB			0.014 µg/mL
CN(C)C(=O)C(=O)N(C)CC1c2nc(C(=O)NCc3ccc(F)cc3)c(O)c(=O)n2CCN1C			p24	1–10 µM
CC(C)C1=C2[C@H]3CC[C@@H]4[C@@]5(C)CC[C@H](OC(=O)C6C[C@@H](C(=O)O)C6(C)C)C(C)(C)[C@@H]5CC[C@@]4(C)[C@]3(C)CC[C@@]2(NC(=O)C(C)(C)NC(=O)c2ccc(N3CCS(=O)(=O)CC3)cc2)CC1=O	NL4-3	V7A	p24	0.01001–0.05 µM
COc1c(-c2cc(C)on2)c(O)c(S(=O)(=O)OC2CCCC2)c2occc12	IIIB		MTT	0.000031 µM
Cc1ccnc2c1NC(=O)c1cccnc1N2C1CC1		AZT-resistant (67N 70R 215F 219Q)	MTT	0.07 µM
CCOCn1c(Cc2ccccc2)c(C(C)C)c(=O)[nH]c1=O	IIIB		MTT	0.03 µM
Cc1nc2c(c(C)c(C)n2Cc2ccoc2)c(-c2ccc(Cl)cc2)c1[C@H](OC(C)(C)C)C(=O)O	IIIB		MTT	0.02616 µM
CS(=O)(=O)c1ccc2c(c1)CCN2C(=O)COc1ccc(Cl)c(Oc2cc(Cl)cc(C#N)c2)c1			p24	<20 µM
CC(C)C1=C2[C@H]3CC[C@@H]4[C@@]5(C)CC[C@H](OC(=O)C6C[C@@H](C(=O)O)C6(C)C)C(C)(C)[C@@H]5CC[C@@]4(C)[C@]3(C)CC[C@@]2(NC(=O)C(C)(C)NS(C)(=O)=O)CC1=O	NL4-3	V7A	p24	>0.05 µM
Cc1ccc2sn(/N=C/c3ccc(Cl)cc3)c(=O)c2c1			MTT	24 µM
CC1(C)c2nc(C(=O)NCc3ccc(F)cc3)c(O)c(=O)n2CCN1CC#N			p24	<1 µM
CC(C)[C@H](NC(=O)OCc1ccccn1)C(=O)N[C@@H](Cc1ccccc1)[C@@H](O)C[C@H](Cc1ccccc1)NC(=O)OCc1cccnc1	NL4-3	PR-M46I V82T I84V	p24	<3 µM
O=C(OC[C@H]1O[C@@H](OC(=O)c2cc(O)c(O)c(O)c2)[C@H](OC(=O)c2cc(O)c(O)c(O)c2)[C@@H](OC(=O)c2cc(O)c(O)c(O)c2)[C@@H]1OC(=O)c1cc(O)c(O)c(O)c1)c1cc(O)c(O)c(O)c1	IIIB		cytopathic effect / MTT	>25 µg/mL
CC(C)C1=C2[C@H]3CC[C@@H]4[C@@]5(C)CC[C@H](OC(=O)C6C[C@@H](C(=O)O)C6(C)C)C(C)(C)[C@@H]5CC[C@@]4(C)[C@]3(C)CC[C@@]2(NC(=O)C(C)(C)NC(=O)c2ccc(Cl)cn2)CC1=O	NL4-3	V7A	p24	<0.01 µM
CCc1c(Cc2ccccc2)n(COCCCc2ccccc2)c(=O)[nH]c1=O	A17	K103N/Y181C	MTT	>23 µM
CC(C)CN(C[C@@H](O)[C@H](Cc1ccccc1)NC(=O)O[C@H]1CCOC1)S(=O)(=O)c1ccc(N)cc1	T21729	R41E	reporter gene	188 nM
N#Cc1cc(Cl)cc(Oc2cc(OCC(=O)Nc3ccc(S(N)(=O)=O)cc3Cl)ccc2Cl)c1			p24	<20 µM
O=C1O[C@H]2[C@@H]3OC(=O)c4cc(O)c(O)c5c4[C@@H]4C(=CC(=O)[C@](O)(O5)C4(O)O)C(=O)OC[C@H]2O[C@@H](OC(=O)c2cc(O)c(O)c(O)c2)C3OC(=O)c2cc(O)c(O)c3c2[C@@H]2C1=CC(=O)[C@](O)(O3)C2(O)O	IIIB		cytopathic effect / MTT	>100 µg/mL
Cc1cn([C@H]2C=C[C@@H](CO)O2)c(=O)[nH]c1=O	RD 03-RT-41L 210W C215Y K65R Recombinant		cytopathic effect / MTT	0.75 µM
O=C[C@H](OC(=O)c1cc(O)c(O)c(O)c1Oc1cc2c(c(O)c1O)-c1c3cc(c(O)c1O)Oc1c(cc(O)c(O)c1O)C(=O)O[C@@H](C=O)[C@@H](OC(=O)c1cc(O)c(O)c(O)c1)[C@@H]1OC(=O)c4cc(O)c(O)c(O)c4-c4c(cc(c(O)c4O)Oc4c(cc(O)c(O)c4O)C(=O)O[C@@H](C=O)[C@@H](OC(=O)c4cc(O)c(O)c(O)c4)[C@H](OC3=O)[C@H](O)COC2=O)C(=O)OC[C@H]1O)[C@@H](OC(=O)c1cc(O)c(O)c(O)c1)[C@@H]1OC(=O)c2cc(O)c(O)c(O)c2-c2c(cc(O)c(O)c2O)C(=O)OC[C@H]1O	IIIB		cytopathic effect / MTT	20.2 µg/mL
CCCn1c(C)c(C)c2c(-c3ccc(Cl)cc3)c(C(OC(C)(C)C)C(=O)O)c(C)nc21	IIIB		MTT	0.0293 µM
Cn1nccc1CN1CCn2c(nc(C(=O)NCc3ccc(F)cc3)c(O)c2=O)C1(C)C			p24	<1 µM
O=c1c2ccccc2sn1/N=C/c1cccc(Cl)c1			MTT	100 µM
Cc1nc2c(c(C)c(C)n2CC(C)C)c(-c2ccc(Cl)cc2)c1C(OC(C)(C)C)C(=O)O	IIIB		MTT	0.107 µM
COc1c(O)cc2ccc(=O)oc2c1-c1c(O)ccc2ccc(=O)oc12		MDR (74V 41L 106A 215Y)	MTT	12 µM
COc1ccc(N/C(C)=C\C(=O)c2c(O)c(S(=O)(=O)Oc3ccc([N+](=O)[O-])cc3)c3occc3c2OC)cc1	IIIB		MTT	0.00004 µM

6 of the rows above, restated:

| structure | strain | mutations | read by | value |
|---|---|---|---|---|
| COc1c(-c2cc(C)[nH]n2)c(O)c(S(=O)(=O)Oc2ccc([N+](=O)[O-])cc2)c2occc12 | IIIB |  | MTT | 0.000023 µM |
| CCc1c(Cc2ccc(OC)c(OC)c2)n(COCC2CC2)c(=O)[nH]c1=O | EFVR | K103R/V179D/P225H | MTT | >100 µM |
| CC(C)CN(C[C@@H](O)[C@H](Cc1ccccc1)NC(=O)O[C@H]1CCOC1)S(=O)(=O)c1ccc(N)cc1 | T21729 | R41E | reporter gene | 188 nM |
| CN(C)C(=O)C(=O)N(C)CC1c2nc(C(=O)NCc3ccc(F)cc3)c(O)c(=O)n2CCN1C |  |  | p24 | 1–10 µM |
| Cc1ccnc2c1NC(=O)c1cccnc1N2C1CC1 |  | AZT-resistant (67N 70R 215F 219Q) | MTT | 0.07 µM |
| NS(=O)(=O)c1ccc(NC(=O)COc2cc(Cl)cc(Oc3cncc(Br)c3)c2)c(Cl)c1 |  |  | p24 | <20 µM |